Pooled drug test results. Numbers come from NIAID ChemDB, via PubChem.

All rows: growth or infection tests; organism: Hepatitis C virus; read by: replicon; measure: EC50

An empty or dashed field is not shown.

| compound | strain | cells | conditions | value |
|---|---|---|---|---|
| COc1cccc(CC(=O)N/[N+](C)=C/c2cc(F)ccc2OS(=O)(=O)c2ccc(C(F)(F)F)cc2)c1 |  | Huh7 |  | >50 µM |
| Nc1ncnc2c1c(-c1cccs1)cn2[C@H]1O[C@H](CO)[C@@H](O)C1(F)F | 1b | HCV replicon |  | 0.44 µM |
| O=C(Cc1ccc(Cl)c(Cl)c1)N/N=C/c1ccccc1OS(=O)(=O)c1ccc(C(F)(F)F)cc1 |  | Huh7 |  | <5 µM |
| Fc1ccc(CNc2nc(N[C@@H]3CCOC3)c3nc(-c4ccc(F)cc4)ccc3n2)cc1 |  |  |  | <0.1 µM |
| Cc1ccc(-n2ncc3c(Nc4cccc(Cl)c4)ncnc32)c(C)c1 |  | HUH 9B |  | 1–10 µM |
| COC(=O)c1ccc2c(C3CCCCC3)c3n(c2c1)CC(C(=O)N1CCOCC1)Cc1ccccc1-3 |  | Huh7 |  | 1–10 µM |
| CC(C)Nc1nc(NCc2ccccn2)nc2ccc(-c3ccc(F)cc3)nc12 |  |  |  | 0.1–0.25 µM |
| N/C(Cc1ccc([N+](=O)[O-])cc1)=N\OC(=O)N1CCOCC1 |  | Huh7 |  | 1.55 µM |
| CNC(=O)c1c(-c2ccc(F)cc2)oc2cc(N3CCOCC3)c(OCc3cnc[nH]3)cc12 |  | Huh7 |  | <10 µM |
| CCOC(=O)c1ccc(Nc2ncnc3c2cnn3-c2ccc(C)cc2C)cc1 |  | HUH 9B |  | <1 µM |
| CCOc1nc(NCc2ccc(-n3cncn3)cc2)nc2ccc(-c3ccc(F)cc3)nc12 |  |  |  | <0.1 µM |
| C=CC[C@](C)(NC(=O)[C@H]1C[C@@H](Oc2nccc3cc(C)ccc23)CN1C(=O)[C@@H](NC(=O)OC(C)(C)C)C(C)(C)C)C(=O)NS(=O)(=O)C1CC1 | BMS | Huh7 |  | <0.1 µM |
| Fc1cccc(Nc2ncnc3c2cnn3-c2ccc(Cl)cc2)c1 |  | HUH 9B |  | 1–10 µM |
| CNC(=O)c1c(-c2ccc(F)cc2)oc2cc(-c3cc[nH]c3)c(OC)cc12 |  | Huh7 |  | <1 µM |
| C=C[C@@H]1C[C@@]1(NC(=O)[C@H]1C[C@@H](Oc2nnc(OCC)c3ccccc23)CN1C(=O)[C@@H](N)C(C)(C)C)C(=O)NS(=O)(=O)C1CC1 | BMS | Huh7 |  | <0.1 µM |
| COC(=O)c1ccc2c(C3CCCCC3)c3n(c2c1)CC(=O)N3c1ccccc1 |  | Huh7 |  | >10 µM |
| C=C[C@H]1C[C@@]1(NC(=O)[C@H]1C[C@@H](Oc2nc(-c3ccccc3)cc3ccccc23)CN1C(=O)[C@@H](NC(=O)OC(C)(C)C)[C@@H](C)OCc1ccccc1)C(=O)NS(=O)(=O)C1CC1 | BMS | Huh7 |  | 0.1–1 µM |
| Nc1ncnc2c1c(-c1ccsc1)cn2[C@@H]1O[C@H](CO)[C@@H](O)C1(F)F | 1a | HCV replicon |  | 6.52 µM |
| CNC(=O)c1c(-c2ccc(F)cc2)oc2cc(-c3ccn[nH]3)c(OC(C)C)cc12 |  | Huh7 |  | <10 µM |
| CCOc1nc(NCc2ccc(S(N)(=O)=O)cc2)nc2ccc(-c3ccc(NC(=O)C(N)[C@@H](C)O)cc3)nc12 |  |  |  | <0.1 µM |
| COC(=O)c1ccc2c(C3CCCCC3)c3n(c2c1)CCNc1ccccc1-3 |  | Huh7 |  | 0.01–1 µM |
| Fc1ccc(-c2ccc3nc(NCc4nnco4)nc(NCC(F)(F)F)c3n2)cc1 |  |  |  | <0.1 µM |
| Oc1ccc(C23CCCC2C2(CCCC2)c2ccc(O)cc2O3)c(O)c1 |  | Huh7 |  | 4.81 µM |
| COc1cccc(CC(=O)N/N=C/c2ccccc2OS(=O)(=O)c2ccc(-c3cc(C(F)(F)F)on3)s2)c1 |  | Huh7 |  | <5 µM |
| CC(C)Nc1nc(NCC(F)F)nc2ccc(-c3ccc(F)cc3)nc12 |  |  |  | 0.25–2 µM |
| C=CC[C@](C)(NC(=O)[C@H]1C[C@@H](Oc2cc3c(Cl)nccc3c3c2OCO3)CN1C(=O)[C@@H](NC(=O)OC(C)(C)C)C(C)(C)C)C(=O)NS(=O)(=O)C1CC1 | BMS | Huh7 |  | <0.1 µM |
| O=S(=O)(N/N=C/c1ccccc1OS(=O)(=O)c1ccc(C(F)(F)F)cc1)c1cccc2ccccc12 |  | Huh7 |  | 5–50 µM |
| CNC(=O)c1c(-c2ccc(F)cc2)oc2cc(N(C)CCOC)c(OC(C)C)cc12 |  | Huh7 |  | <1 µM |
| C=C[C@@H]1C[C@]1(NC(=O)[C@@H]1C[C@@H](Oc2nc3c(Cl)nccc3cc2OC)CN1C(=O)[C@@H](NC(=O)OC(C)(C)C)C(C)(C)C)C(=O)NS(=O)(=O)C1CC1 | BMS | Huh7 |  | 0.1–1 µM |
| NS(=O)(=O)c1ccc(CCNc2ncnc3c2CNN3c2ccccc2Br)cc1 |  | HUH 9B |  | 1–10 µM |
| Nc1ncnc2c1c(-c1ccsc1)cn2[C@H]1O[C@H](CO)[C@@H](O)C1(F)F | 1a | HCV replicon |  | 4.71 µM |
| COc1nc(N)nc2c1ncn2[C@@H]1O[C@H](COP(=O)(N[C@@H](C)C(=O)OC(C)C)Oc2ccccc2)[C@@H](O)[C@@]1(C)F | 2a |  | 45 d | 0.091 µM |
| Clc1ccccc1-n1ncc2c(NCCc3c[nH]c4ccccc34)ncnc21 |  | HUH 9B |  | <1 µM |
| C=CC[C@](C)(NC(=O)[C@H]1C[C@@H](Oc2nc3ccoc3c3ccccc23)CN1C(=O)[C@@H](NC(=O)OC(C)(C)C)C(C)(C)C)C(=O)NS(=O)(=O)C1CC1 | BMS | Huh7 |  | <0.1 µM |
| C#Cc1cn([C@@H]2O[C@H](CO)[C@@H](O)C2(F)F)c2ncnc(N)c12 | 1b | HCV replicon |  | 0.5 µM |
| CS(=O)(=O)Nc1cccc(-c2ccc3nc(N)nc(O[C@@H]4CCOC4)c3n2)c1 |  | Huh7 |  | <0.3 µM |
| COc1ccc(CC(=O)N/N=C/c2ccccc2OS(=O)(=O)c2ccc(C(F)(F)F)cc2)cc1OC |  | Huh7 |  | <5 µM |
| Brc1ccc(Cn2ccc3nc(-c4ccccn4)nc-3c2)cc1 |  | Huh 5-2 |  | 0.2 µg/mL |
| CCCc1ccc(S(=O)(=O)Oc2ccccc2/C=N/NC(=O)Cc2ccccc2)cc1 |  | Huh7 |  | <5 µM |
| COC(=O)N[C@H](C(=O)N1CC2(CC2)C[C@H]1c1ncc(-c2ccc3c(c2)C(F)(F)c2cc(-c4ccc5nc([C@@H]6[C@H]7CC[C@H](C7)N6C(=O)[C@@H](NC(=O)OC)C(C)C)[nH]c5c4)ccc2-3)[nH]1)C(C)C | genotype 1b | HCV replicon cells |  | 0.000004 µM |
| Fc1cccc(Cn2ccc3nc(-c4ccccc4)nc-3c2)c1 |  | Huh 5-2 |  | 1 µg/mL |
| N#Cc1ccc(-c2ccc3nc(NCc4ccc(S(N)(=O)=O)cc4)nc(NCC(F)(F)F)c3n2)cc1 |  |  |  | <0.1 µM |
| O=C1Cn2c(c(C3CCCCC3)c3ccc(C(=O)NC4(C(=O)Nc5ccc(-c6cscn6)cc5)CCCC4)cc32)-c2ccccc2N1 |  | Huh7 |  | 0.01–1 µM |
| Nc1ncnc2c1c(-c1ccoc1)cn2[C@@H]1O[C@H](CO)[C@@H](O)C1(F)F | 1a | HCV replicon |  | 16.51 µM |
| COc1cc(OC)c(CCC2(C3CCCC3)CC(O)=C(Sc3nc4nc(C)cc(C)n4n3)C(=O)O2)cc1Cl | M423T |  |  | 201 µM |
| CNC(=O)c1c(-c2ccc(F)cc2)oc2cc(NS(C)(=O)=O)c(OC)cc12 |  | Huh7 |  | <1 µM |
| Nc1ncnc2c1c(-c1ccccc1)cn2[C@@H]1O[C@H](CO)[C@@H](O)[C@H]1F | 1b | HCV replicon |  | 18.83 µM |
| N/C(=N\OC(=O)N1CCOCC1)c1ccc(I)cc1 |  | Huh7 |  | 1.6 µM |
| CCCCc1ccc(Nc2ncnc3c2cnn3-c2ccccc2)cc1 |  | HUH 9B |  | >10 µM |
| C=CC[C@](C)(NC(=O)[C@H]1C[C@@H](Oc2ccnc3ccc(F)cc23)CN1C(=O)[C@@H](NC(=O)OC(C)(C)C)C(C)(C)C)C(=O)NS(=O)(=O)C1CC1 | BMS | Huh7 |  | <0.1 µM |
| CNC(=O)c1c(-c2ccc(F)cc2)oc2cc(CO)c(OC(C)C)cc12 |  | Huh7 |  | <10 µM |
| O=C(O)/C=C/c1ccc(NC(=O)C2(NC(=O)c3ccc4c(C5CCCCC5)c5n(c4c3)CC(C(=O)N3CCOCC3)Cc3cccnc3-5)CCCC2)cc1 |  | Huh7 |  | 0.01–1 µM |
| Ic1ccc(Cn2ccc3nc(-c4ccccc4)nc-3c2)cc1 |  | Huh 5-2 |  | <0.62 µg/mL |
| COc1cccc(CC(=O)N/N=C/c2cccc(Cl)c2OS(=O)(=O)c2ccc(C)cc2)c1 |  | Huh7 |  | <5 µM |
| O=C(O)c1ccc2c(C3CCCCC3)c3n(c2c1)C/C=C\COc1ccccc1-3 |  | Huh7 |  | 1–10 µM |
| C=CC[C@](C)(NC(=O)[C@H]1C[C@@H](Oc2nccc3occc23)CN1C(=O)[C@@H](NC(=O)OC(C)(C)C)C(C)(C)C)C(=O)NS(=O)(=O)C1CC1 | BMS | Huh7 |  | 0.1–1 µM |
| C#Cc1cn([C@@H]2O[C@H](CO)[C@@H](O)[C@H]2F)c2ncnc(N)c12 | 2a | HCV replicon |  | 1.86 µM |
| O=C(O)/C=C/c1ccc(NC(=O)C2(NC(=O)c3ccc4c(C5CCCCC5)c5n(c4c3)CCOc3cccnc3-5)CCCC2)cc1 |  | Huh7 |  | 0.01–1 µM |
| O=C(CCCc1ccccc1)N/N=C/c1ccccc1OS(=O)(=O)c1ccc(C(F)(F)F)cc1 |  | Huh7 |  | <5 µM |
| CS(=O)(=O)N(CCO)c1cccc(-c2ccc3nc(NCc4ccc(S(N)(=O)=O)cc4)nc(NCC(F)(F)F)c3n2)c1 |  |  |  | <0.1 µM |
| Cc1ccc(/C=N/NC(=O)Cc2cccc(Cl)c2)c(OS(=O)(=O)c2ccc(C(F)(F)F)cc2)c1 |  | Huh7 |  | >50 µM |
| Cc1ccc(-n2ncc3c(Nc4ccc(Cl)c(Cl)c4)ncnc32)c(C)c1 |  | HUH 9B |  | <1 µM |
| COc1ccc(/C(N)=N/OC(=O)N2CCOCC2)cc1 |  | Huh7 |  | 1.77 µM |
| C=CC[C@](C)(NC(=O)[C@H]1C[C@@H](Oc2nccc3c(SC)c(OC)ccc23)CN1C(=O)[C@@H](NC(=O)OC(C)(C)C)C(C)(C)C)C(=O)NS(=O)(=O)C1CC1 | BMS | Huh7 |  | <0.1 µM |
| COc1ccc(/C(N)=N/OC(=O)N2CCOCC2)cc1OC |  | Huh7 |  | 3.8 µM |
| Nc1ncnc2c1c(-c1ccco1)cn2[C@H]1O[C@H](CO)[C@@H](O)C1(F)F | 1b | HCV replicon |  | 1.63 µM |
| CNC(=O)c1c(-c2ccc(F)cc2)oc2cc(C(C)(C)O)c(OC(C)C)cc12 |  | Huh7 |  | <1 µM |
| O=c1ccn([C@@H]2O[C@H](CO)[C@@H](O)[C@H]2O)c(=S)[nH]1 |  | Huh7 |  | 0.86 µM |
| Nc1ncnc2c1c(-c1ccco1)cn2[C@@H]1O[C@H](CO)[C@@H](O)C1(F)F | 2a | HCV replicon |  | 5.62 µM |

Repeating the first 6 entries:

compound | strain | cells | conditions | value
COc1cccc(CC(=O)N/[N+](C)=C/c2cc(F)ccc2OS(=O)(=O)c2ccc(C(F)(F)F)cc2)c1 |  | Huh7 |  | >50 µM
Nc1ncnc2c1c(-c1cccs1)cn2[C@H]1O[C@H](CO)[C@@H](O)C1(F)F | 1b | HCV replicon |  | 0.44 µM
O=C(Cc1ccc(Cl)c(Cl)c1)N/N=C/c1ccccc1OS(=O)(=O)c1ccc(C(F)(F)F)cc1 |  | Huh7 |  | <5 µM
Fc1ccc(CNc2nc(N[C@@H]3CCOC3)c3nc(-c4ccc(F)cc4)ccc3n2)cc1 |  |  |  | <0.1 µM
Cc1ccc(-n2ncc3c(Nc4cccc(Cl)c4)ncnc32)c(C)c1 |  | HUH 9B |  | 1–10 µM
COC(=O)c1ccc2c(C3CCCCC3)c3n(c2c1)CC(C(=O)N1CCOCC1)Cc1ccccc1-3 |  | Huh7 |  | 1–10 µM

ECn is the concentration giving n% inhibition of infection, replication or growth. Rows are shuffled and stem from different studies. Two numbers with a dash give a range or band.